# Experimental data: PubChem BioAssay AID624099 (ICCB-Longwood, 2012)
# Test: 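Host factors E2 relies on to silence an HPV18 LCR reporter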 (primary screen)
# Cell system: human C33A cervical carcinoma cells (HPV-negative) stably expressing BPV1 E2 and an HPV18 LCR luciferase reporter
# Knock-down reagent: siRNA pool against human genes, 40 nM
# Timing: 72 h
# Read-out: 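Per-well luciferase luminescence, z-scored on each plate against the plate mean and SD with control wells left out, then averaged across three replicate plates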
# Scale: mean z-score and z-score: higher = stronger reporter signal, weaker E2 silencing
# Active means: 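Mean z ≥ 2 together with z ≥ 2 in two or more of the three replicates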
# The deposit covers about 21,000 reagents; below is a random part of them. 497 of them (2.4%) were called active. 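Higher z means weaker E2 silencing; only reporter increases were scored, and knock-downs that hurt cell survival may mask genuine repressor factors.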 The numbers tell different reagents against one gene apart.
Gene,reagent,mean z-score,"z-score, replicate A","z-score, replicate B","z-score, replicate C",Call
LOC389438 (retired record),1,-0.97,-0.81,-1.02,-1.06,inactive
TMEM51-AS1 (TMEM51 antisense RNA 1),1,0.71,1.04,0.45,0.63,inactive
ARPC4 (actin related protein 2/3 complex subunit 4),1,-0.19,-0.04,-0.4,-0.15,inactive
SMC2 (structural maintenance of chromosomes 2),1,-1.22,-1.21,-1.16,-1.28,inactive
SCARF1 (scavenger receptor class F member 1),1,-0.58,-0.66,-0.44,-0.64,inactive
AKT1 (AKT serine/threonine kinase 1),1,0.91,0.9,0.53,1.31,inactive
KCNK3 (potassium two pore domain channel subfamily K member 3),1,-1.22,-1,-1.15,-1.5,inactive
BBS1 (Bardet-Biedl syndrome 1),1,-0.53,-0.54,-0.4,-0.65,inactive
DNAI3 (dynein axonemal intermediate chain 3),1,-0.67,-0.57,-0.76,-0.69,inactive
RPL7L1P8 (RPL7L1 pseudogene 8),1,-0.88,-0.88,-0.69,-1.08,inactive
PRDM10 (PR/SET domain 10),1,-1.17,-1.05,-1.18,-1.27,inactive
"METTL2A (methyltransferase 2A, tRNA N3-cytidine)",1,0.69,0.86,0.56,0.64,inactive
LINC01785 (long independently transcribed non-coding RNA 1785),1,-0.94,-1.04,-1.11,-0.66,inactive
LINC02487 (long independently transcribed non-coding RNA 2487),1,0.23,-0.15,0.91,-0.06,inactive
SPATA13 (spermatogenesis associated 13),1,0.43,0.12,1.1,0.09,inactive
EIF6 (eukaryotic translation initiation factor 6),1,0.94,0.87,0.68,1.25,inactive
EIF6 (eukaryotic translation initiation factor 6),2,-0.25,-0.27,-0.14,-0.34,inactive
SERF1B (small EDRK-rich factor 1B),1,-1.01,-1,-1.29,-0.74,inactive
TEX13B (testis expressed 13B),1,0.53,0.32,0.98,0.31,inactive
NACA2 (nascent polypeptide associated complex subunit alpha 2),1,1.1,0.88,1.31,1.11,inactive
CLEC1B (C-type lectin domain family 1 member B),1,1.04,1.08,1.07,0.98,inactive
"NUDC (nuclear distribution C, dynein complex regulator)",1,-1.22,-1.42,-1.06,-1.18,inactive
LOC402469 (retired record),1,-1.06,-1.18,-1.14,-0.85,inactive

Sorted by “z-score, replicate A” (ascending): 2 of the entries above.
Gene,reagent,mean z-score,"z-score, replicate A","z-score, replicate B","z-score, replicate C",Call
DNAI3 (dynein axonemal intermediate chain 3),1,-0.67,-0.57,-0.76,-0.69,inactive
BBS1 (Bardet-Biedl syndrome 1),1,-0.53,-0.54,-0.4,-0.65,inactive
